Compound potency records, mixed from different reports. Data source: NIAID ChemDB in PubChem.

Common to all: growth or infection tests; species: HIV-1; method: RT activity; endpoint: EC50

Neighbouring rows are from separate reports. ECn: concentration that inhibits the pathogen or its effect by n%.

CN1CCN(CCSc2nccc(-c3ccc(-c4ccnc(SCCN5CCN(C)CC5)n4)s3)n2)CC1 ; strain: LAV-1 ; cells: PBMC ; result: 17.5 µM
O=c1[nH]c(=O)n([C@@H]2C=C[C@H](CO)O2)cc1CCO ; strain: LAI ; cells: CEM ; result: 41 µM
Cc1cn(CCCCO[C@H]2C=C[C@@H](CO)O2)c(=O)[nH]c1=O ; strain: LAI ; cells: CEM + CEM-SS ; result: 30 µg/mL
CC(C)(C)[Si](C)(C)O[C@H]1[C@H](CO)O[C@H](n2ccc(N)nc2=O)C1(F)F ; strain: LAV ; cells: PBMC ; result: >100 µM
Cc1cn([C@H]2C[C@H](N=[N+]=[N-])[C@@H](CO)O2)c(=O)[nH]c1=O ; strain: LAI ; cells: CEM ; result: 0.0021 µM
CC(=O)N[C@@H](CSC(C)=O)C(=O)NCCSC(=O)C(C)C ; strain: BaL ; cells: MDM ; result: 45 µM
COc1cc(-c2ccc(N=Nc3ccc4c(S(=O)(=O)O)cc(S(=O)(=O)O)c(N)c4c3O)c(OC)c2)ccc1N=Nc1ccc2c(S(=O)(=O)O)cc(S(=O)(=O)O)c(N)c2c1O ; strain: SKI ; cells: CEM + CEM-SS ; result: 1.8 µM
Cc1cn([C@@H]2O[C@@H](CO)[C@H](O[Si](C)(C)C(C)(C)C)C2(F)F)c(=O)[nH]c1=O ; strain: LAV ; cells: PBMC ; result: >100 µM
Nc1nc(=O)n([C@@H]2O[C@H](CO)C=C2F)cc1F ; strain: RT-M184V ; cells: PBMC ; result: <34.7 µM
CCN(CC)C(=O)OCC1CN(C(=O)c2ccncc2)CCN1C(=O)c1ccncc1 ; strain: BaL ; cells: MDM ; result: >100 µM
COC(=O)Cc1cn([C@@H]2C=C[C@H](CO)O2)c(=O)[nH]c1=O ; strain: LAI ; cells: CEM ; result: >100 µM
CCCCOc1c(OC)cc(C(=O)N2CCN(Cc3ccccc3)CC2COC(=O)N(CC)CC)cc1OC ; strain: BaL ; cells: MDM ; result: >5 µM
CC(C)C1=C2C3CCC4[C@@]5(C)CC[C@H](OC(=O)CC(C)(C)C(=O)O)C(C)(C)C5CC[C@@]4(C)[C@]3(C)CC[C@@]2(NC(=O)NC(C)(C)c2ccccn2)CC1=O ; strain: IIIB ; conditions: 30% human serum ; cells: MT-2 ; result: <0.199 µM
Cc1cn([C@H]2C=C[C@@H](CO)O2)c(=O)n(CCCN2CCN(CCNC(=S)Nc3ccc(Br)cn3)CC2)c1=O ; strain: IIIB ; cells: CEM + CEM-SS ; result: >100 µM
Cc1ccc2c(c1)nc(-c1c(F)cccc1F)n2Cc1c(F)cccc1F ; strain: IIIB ; cells: MT-4 ; result: 4.89 µM
Cc1cc(C(=O)N[C@@]23CC[C@]4(C)C(CCC5[C@@]6(C)CC[C@H](OC(=O)CC(C)(C)C(=O)O)C(C)(C)C6CC[C@]54C)C2=C(C(C)C)C(=O)C3)no1 ; strain: IIIB ; conditions: 30% human serum ; cells: MT-2 ; result: <0.199 µM
O=C(Cc1cn([C@H]2C=C[C@@H](CO)O2)c(=O)[nH]c1=O)NCCCCCCCCNC(=O)c1c2ccccc2nc2ccccc12 ; strain: LAI ; cells: CEM ; result: >10 µM
CC(C)C1=C2C3CCC4[C@@]5(C)CC[C@H](OC(=O)CC(C)(C)C(=O)O)C(C)(C)C5CC[C@@]4(C)[C@]3(C)CC[C@@]2(NC(=O)NCc2ccncc2)CC1=O ; strain: IIIB ; conditions: 30% human serum ; cells: MT-2 ; result: <0.199 µM
OCCNc1nc(-c2cccs2)cc(-c2cccs2)n1 ; strain: LAV-1 ; cells: PBMC ; result: 33.2 µM
COC(=O)[C@H](C)NP(=O)(OC[C@@H]1C=C[C@H](n2cc(CC(=O)NCCCCCCCCCCCCNC(=O)C(F)(F)F)c(=O)[nH]c2=O)O1)Oc1ccccc1 ; strain: LAI ; cells: CEM ; result: >10 µM
Cc1c(-c2cccc(SCCN(C)C)c2)ncnc1-c1cccc(SCCN(C)C)c1 ; strain: LAV-1 ; cells: PBMC ; result: 6 µM
CC(=O)N[C@@H](CS)C(=O)NCCSC(=O)c1ccccc1 ; strain: BaL ; cells: MDM ; result: <150 µM
O=c1ccn([C@H]2C=C[C@@H](CO)O2)c(=O)n1CCCN1CCN(CCNC(=S)Nc2ccc(Br)cn2)CC1 ; strain: IIIB ; cells: MT-4 ; result: >100 µM
CC(C)C1=C2C3CCC4[C@@]5(C)CC[C@H](OC(=O)CC(C)(C)C(=O)O)C(C)(C)C5CC[C@@]4(C)[C@]3(C)CC[C@@]2(NC(=O)c2cncnc2)CC1=O ; strain: IIIB ; conditions: 30% human serum ; cells: MT-2 ; result: <0.199 µM
OCCN(CCO)CCOc1nc(-c2cccs2)cc(-c2cc3ccccc3s2)n1 ; strain: LAV-1 ; cells: PBMC ; result: 1.5 µM
COC(=O)[C@H](C)NP(=O)(OC[C@H]1C=C[C@@H](n2cc(CC(=O)NCCCCCCCCCCCCNC(=O)C(F)(F)F)c(=O)[nH]c2=O)O1)Oc1ccccc1 ; strain: LAI ; cells: CEM ; result: >10 µM
CC(C)C1=C2C3CCC4[C@@]5(C)CC[C@H](OC(=O)CC(C)(C)C(=O)O)C(C)(C)C5CC[C@@]4(C)[C@]3(C)CC[C@@]2(NC(=O)NC2(c3ccccn3)CC2)CC1=O ; strain: IIIB ; conditions: 30% human serum ; cells: MT-2 ; result: <0.199 µM
CC(=O)N[C@@H](CSC(=O)c1ccccc1)C(=O)NCCSC(=O)C(C)C ; strain: BaL ; cells: MDM ; result: <150 µM
COc1cc2nc(-c3c(F)cccc3F)n(Cc3c(F)cccc3F)c2cc1Cc1c(F)cccc1F ; strain: IIIB ; cells: MT-4 ; result: 31.22 µM
CC(C)C1=C2C3CCC4[C@@]5(C)CC[C@H](OC(=O)CC(C)(C)C(=O)O)C(C)(C)C5CC[C@@]4(C)[C@]3(C)CC[C@@]2(NC(=O)O[C@@H]2CCN(C)C2)CC1=O ; strain: IIIB ; conditions: 30% human serum ; cells: MT-2 ; result: <0.199 µM
O=c1[nH]c(=O)n([C@@H]2O[C@@H](CO)[C@H](O)C2(F)F)cc1Cl ; strain: LAI ; cells: PBMC ; result: >100 µM
CC(C)C1=C2C3CCC4[C@@]5(C)CC[C@H](OC(=O)CC(C)(C)C(=O)O)C(C)(C)C5CC[C@@]4(C)[C@]3(C)CC[C@@]2(NC(=O)N2CC[C@H](NC(=O)OC(C)(C)C)C2)CC1=O ; strain: IIIB ; conditions: 30% human serum ; cells: MT-2 ; result: <0.199 µM
Nc1nc2c(ncn2[C@@H]2O[C@@H](CO)[C@H](O)C2(F)F)c(=O)[nH]1 ; strain: LAI ; cells: PBMC ; result: >100 µM
O=C(NCCCc1cn([C@H]2C=C[C@@H](CO)O2)c(=O)[nH]c1=O)C(F)(F)F ; strain: LAI ; cells: CEM ; result: >100 µM
Fc1cccc(F)c1Cn1c(-c2c(F)cccc2F)nc2ccccc21 ; strain: IIIB ; cells: MT-4 ; result: 2.01 µM
CCN(CC)C(=O)OCC1CN(C(=O)c2cc(OC)c(OC)c(OC)c2)CCN1C(c1ccccc1)c1ccccc1 ; strain: BaL ; cells: MDM ; result: 3 µM
O=c1ccn([C@H]2C=C[C@@H](CO)O2)c(=O)n1CC#CCN1CCN(CCNC(=S)Nc2ccc(Br)cn2)CC1 ; strain: IIIB ; cells: CEM + CEM-SS ; result: >73 µM
CC(C)C1=C2C3CCC4[C@@]5(C)CC[C@H](OC(=O)CC(C)(C)C(=O)O)C(C)(C)C5CC[C@@]4(C)[C@]3(C)CC[C@@]2(NC(=O)N[C@H](C)C2CCCCC2)CC1=O ; strain: IIIB ; conditions: 30% human serum ; cells: MT-2 ; result: <0.199 µM
O=c1[nH]c(=O)n([C@@H]2O[C@@H](CO)[C@H](O)C2(F)F)cc1Br ; strain: LAI ; cells: PBMC ; result: >100 µM
CN(C)CCSc1nccc(-c2ccc(-c3ccnc(SCCN(C)C)n3)s2)n1 ; strain: LAV-1 ; cells: PBMC ; result: 1.4 µM
CCCCOc1c(OC)cc(C(=O)N2CCN(C(=O)c3cc(OC)c(OC)c(OC)c3)CC2COC(=O)N(CC)CC)cc1OC ; strain: BaL ; cells: MDM ; result: >100 µM
COC(CC(C)C(O)/C=C/C=C/CNC(=O)C(C)(C)C(O)\C(C)=C/C=C\C=C\Cc1cnc(C)o1)C1(O)C(C)C(=O)N(C)C12C(=O)OC2C ; cells: U-937 ; result: <10 µg/mL
O=c1[nH]c(=O)n([C@H]2C=C[C@@H](CO)O2)cc1CCO ; strain: LAI ; cells: CEM ; result: >100 µM
CC(=O)N[C@@H](CSC(C)=O)C(=O)NCCSC(=O)c1ccccc1 ; strain: BaL ; cells: MDM ; result: <150 µM
CCN(CC)C(=O)OCC1CN(C(=O)c2ccccc2)CCN1C(=O)c1ccccc1 ; strain: BaL ; cells: MDM ; result: >100 µM
Cc1cn([C@H]2C=C[C@@H](CO)O2)c(=O)n(CCCCN2CCN(CCNC(=S)Nc3ccc(Br)cn3)CC2)c1=O ; strain: IIIB ; cells: MT-4 ; result: >100 µM
CN1CCN(CCSc2nnc(-c3cc4ccccc4s3)c3ccccc23)CC1 ; strain: LAV-1 ; cells: PBMC ; result: 17.2 µM
COC(=O)[C@H](C)NP(=O)(OC[C@@H]1C=C[C@H](n2cc(CC(=O)NCCCCCCCCCCNC(=O)C(F)(F)F)c(=O)[nH]c2=O)O1)Oc1ccccc1 ; strain: LAI ; cells: CEM ; result: >10 µM
CC(=O)N[C@@H](CSC(=O)C(C)(C)C)C(=O)NCCSC(C)=O ; strain: BaL ; cells: MDM ; result: >150 µM
CCN(CC)C(=O)OCC1CN(C(=O)c2cc(OC)c(OC)c(OC)c2)CCN1 ; strain: BaL ; cells: MDM ; result: >100 µM
Cc1cn([C@H]2O[C@@H](CO)[C@H](O[Si](C)(C)C(C)(C)C)C2(F)F)c(=O)[nH]c1=O ; strain: LAV ; cells: PBMC ; result: >100 µM
CC(C)(C)OC(=O)N[C@H](Cc1ccccc1)/C(O)=C(\C#N)c1c(F)c(F)c(F)c(F)c1F ; strain: IIIB ; cells: MT-4 ; result: 24 µM

Repeating the first 3 entries:

CN1CCN(CCSc2nccc(-c3ccc(-c4ccnc(SCCN5CCN(C)CC5)n4)s3)n2)CC1 ; strain: LAV-1 ; cells: PBMC ; result: 17.5 µM
O=c1[nH]c(=O)n([C@@H]2C=C[C@H](CO)O2)cc1CCO ; strain: LAI ; cells: CEM ; result: 41 µM
Cc1cn(CCCCO[C@H]2C=C[C@@H](CO)O2)c(=O)[nH]c1=O ; strain: LAI ; cells: CEM + CEM-SS ; result: 30 µg/mL